Source: ChEMBL document CHEMBL3430912, “GSK Tres Cantos Anti-Kinetoplastid Screening (TCAKS) Data”

Amino acid sequences for entries named in this document (tags omitted).
UniProt Q7Z1V1, whole entry: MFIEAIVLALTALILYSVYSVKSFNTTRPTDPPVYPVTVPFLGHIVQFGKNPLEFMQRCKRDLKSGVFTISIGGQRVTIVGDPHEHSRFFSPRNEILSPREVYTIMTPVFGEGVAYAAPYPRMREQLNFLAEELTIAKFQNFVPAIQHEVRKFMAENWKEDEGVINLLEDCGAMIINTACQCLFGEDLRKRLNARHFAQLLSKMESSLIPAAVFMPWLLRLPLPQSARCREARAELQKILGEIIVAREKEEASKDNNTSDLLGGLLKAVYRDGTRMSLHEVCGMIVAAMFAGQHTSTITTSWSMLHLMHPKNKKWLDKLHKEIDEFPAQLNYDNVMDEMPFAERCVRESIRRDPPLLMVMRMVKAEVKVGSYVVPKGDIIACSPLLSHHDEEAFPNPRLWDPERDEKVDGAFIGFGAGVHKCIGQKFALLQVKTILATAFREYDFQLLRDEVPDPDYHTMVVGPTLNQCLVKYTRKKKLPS

Target: Sterol 14-alpha demethylase (Trypanosoma cruzi (strain CL Brener), UniProt Q7Z1V1)
Assay: GSK_TCAKS: pIC50 CYP51 from Trypanosoma cruzi.
Format: functional

CC(C)(C)c1ccc(NC2(C(N)=O)CCN(Cc3ccccc3)CC2)cc1
pIC50: 5.3

Some compounds may have been tested in ways that are not shown here.
